Measurements as given in publication PMC7053198 (Theranostics, 2020).

Assay: peptide synthesis
Conditions: conjugation step; for final HPLC purity: 254 nm

Substance | conjugation yield [%] | final HPLC purity [%]
A20FMDV2- SG3249 | 54 | 93.1
NT- peptide- SG3249 | 43 | 92.5
